Reference: patent publication US20260234738A1

Molecular target: UNMODIFIED-SARS-CoV-2 Spike Protein (RBD)(R319-F541).mmH (SARS-CoV-2)

Human_ACE2 (from UniProt Q9BYF1 18-740) (receptor; other documents disagree on this pair)
binding signal (MFI): 5730 MFI and 10700 MFI and 9270 MFI

Values joined by “and” are separate entries in the source; they are usually repeats but may differ in a detail not shown here. Equal values may be shown once.
